Results of unrelated studies side by side (data: NIAID ChemDB).

Shared fields: whole-cell or culture tests; species: Aspergillus flavus; endpoint: MIC

a–b is a range or a potency band. Blank or dashed fields: not listed here. Rows are shuffled and stem from different studies.

CC(C)=CCCC(C)CCO ; strain or isolate: TISTR 3041 ; method: broth dilution ; result: 3600 µg/mL
Cc1ccc(-c2c(CN)c(N)n(N)c(=O)c2CN)o1 ; result: 1.56 µg/mL
Cn1c(=O)c(-c2[nH][nH]c(=O)c2C=Nc2ccc(Cl)cc2)c(O)c2ccccc21 ; strain or isolate: ATCC 28542 ; result: 25 µg/mL
N=C(N)c1ccc(OCCCCCCOc2ccc(C(=N)N)cc2)cc1 ; method: agar diffusion / agar ; result: 19 µg/mL
Nc1ccc(O)c2ncccc12 ; strain or isolate: KCCM 11899 ; result: 0.8 µg/mL
Cc1cc(=O)oc2cc(OCC(O)Cn3cncn3)cc(OCC(O)Cn3cncn3)c12 ; result: 32 µg/mL
Cc1ccc(CC(=O)Nc2nc(-c3cccc(F)c3)cs2)cc1 ; strain or isolate: NCIM 524 ; result: 6.25 µg/mL
Cc1ccc(C2=NN(Cc3n[nH]c(=S)n3-c3ccc(Br)cc3)C(=O)CC2)cc1 ; result: 7 µg/mL
O=C(CN1CCOCC1)Nc1nc(-c2ccccc2)cc(-c2ccc(F)cc2)n1 ; result: 6.25 µg/mL
O=c1[nH][nH]c2c1C(c1ccc(F)cc1)CC(Cc1ccc3ccccc3c1)=C2 ; method: agar diffusion ; result: 100 µg/mL
Cc1ccc(/C=c2\c(=O)[nH][nH]\c2=C2/C(=O)c3ccccc3N(C)C2=O)cc1 ; strain or isolate: ATCC 28542 ; result: >100 µg/mL
O=C(c1ccc(Cl)cc1)N1CCC(n2cc(-c3nc(-c4ccccc4)n[nH]3)nn2)CC1 ; method: agar ; result: >200 µg/mL
Cn1c(=O)c(-c2[nH][nH]c(=O)c2N=Nc2cccc(Br)c2)c(O)c2ccccc21 ; strain or isolate: ATCC 28542 ; result: 25 µg/mL
COc1cccc(CC(=O)Nc2nc(-c3cccc(Cl)c3)cs2)c1 ; strain or isolate: NCIM 524 ; result: 6.25 µg/mL
CCC(C)CC(C)CCCCCCCCC(=O)N[C@H]1C[C@@H](O)[C@H](NCCN)NC(=O)[C@@H]2[C@@H](O)CCN2C(=O)[C@H]([C@H](O)CCN)NC(=O)[C@H]([C@H](O)[C@@H](O)c2ccc(O)cc2)NC(=O)[C@@H]2C[C@@H](O)CN2C(=O)[C@H]([C@@H](C)O)NC1=O ; strain or isolate: 25 ; method: broth dilution ; result: 128 µg/mL
OC(Cn1cncn1)(Cn1cncn1)c1ccc(F)cc1F ; strain or isolate: MTCC 1883 ; result: 10 µg/mL
Cc1cc(=O)oc2cc(OCC(O)Cn3nnc4ccccc43)cc(OCC(O)Cn3nnc4ccccc43)c12 ; result: 256 µg/mL
CCOC(=O)C1/C(=N/Nc2ccc([N+](=O)[O-])cc2[N+](=O)[O-])C=C(c2ccc3ccccc3c2)CC1c1ccc(F)cc1 ; strain or isolate: Clinical isolates ; result: 6.25 µg/mL
O=c1c(N2CCOCC2)c(N2CCN(S(=O)(=O)Cc3ccccc3)CC2)cnn1-c1ccccc1 ; strain or isolate: ND255 ; method: broth dilution ; result: 3.13 µg/mL
Cc1ccc(OCC(=O)Nc2nc(-c3cccc(F)c3)cs2)cc1C ; strain or isolate: NCIM 524 ; result: 100 µg/mL
Cc1cc(=O)n(-c2ccc(N=Nc3c(-c4c(O)c5ccccc5n(C)c4=O)[nH][nH]c3=O)cc2)n1C ; strain or isolate: ATCC 28542 ; result: >100 µg/mL
O=C1CCC(c2ccccc2)=NN1Cc1n[nH]c(=S)n1-c1ccc(Cl)cc1 ; result: 5 µg/mL
C=C1CO[C@H]2[C@@H](C)OC(OC[C@@]34C[C@H]5[C@H](C)CC[C@@H]5[C@@]5(C=O)C[C@@H]3C=C(C(C)C)[C@@]45C(=O)O)C[C@@H]12 ; result: 4–16 µg/mL
O=C1CCC(c2ccccc2)=NN1Cc1n[nH]c(=S)n1-c1ccc(Br)cc1 ; result: 5 µg/mL
Cc1csc(NC(=O)Cc2ccccc2)n1 ; strain or isolate: NCIM 524 ; result: 6.25 µg/mL
CS(=O)(=O)N1CCC(n2cc(-c3nc(-c4ccc(Cl)cc4)n[nH]3)nn2)CC1 ; method: agar ; result: 20 µg/mL
COc1ccc(-c2nc3c(CN)c(-c4ccc(C)o4)c(CN)c(=O)n3[nH]2)cc1 ; result: 3.125 µg/mL
Cc1ccc(C2=NN(Cc3n[nH]c(=S)n3-c3ccccc3)C(=O)CC2)cc1 ; result: 7 µg/mL
Cn1c(=O)c(-c2[nH][nH]c(=O)c2N=Nc2ccc(Br)cc2)c(O)c2ccccc21 ; strain or isolate: ATCC 28542 ; result: >100 µg/mL
COC(=O)Cc1csc(NC(=O)Cc2cccc(OC)c2)n1 ; strain or isolate: NCIM 524 ; result: 12.5 µg/mL
CCC(=O)N1CCC(n2cc(-c3nc(-c4ccc(C)cc4)n[nH]3)nn2)CC1 ; method: agar ; result: 180 µg/mL
CCCC[C@@H](C)/C=C(C)/C=C(\C)C(=O)N/C(=C/[C@@](C)(O)/C=C/C=C/C=C/C(=O)NC1=C(O)CCC1=O)C(=O)[C@@H]1CO1 ; strain or isolate: 2 ; method: broth dilution ; result: 200 µM
Cc1cc(O)cc(O)c1C(=O)O[C@@H]1C[C@]2(C)[C@H]3[C@@H](O)C(C)(C)C[C@@]3(O)C=C(C=O)[C@]12O ; strain or isolate: Plpa59 ; method: broth dilution ; result: >250 µg/mL
COC(=O)/C=C/c1ccccc1 ; method: broth dilution / resazurin ; result: 250 µg/mL
CCC(C)CC(C)CCCCCCCCC(=O)N[C@H]1C[C@@H](O)[C@H](NCCN)NC(=O)[C@@H]2[C@@H](O)CCN2C(=O)[C@H]([C@H](O)CCN)NC(=O)[C@H]([C@H](O)[C@@H](O)c2ccc(O)cc2)NC(=O)[C@@H]2C[C@@H](O)CN2C(=O)[C@H]([C@@H](C)O)NC1=O ; strain or isolate: ND255 ; method: broth dilution ; result: 0.06 µg/mL
CCOC(=O)C1/C(=N/Nc2ccc([N+](=O)[O-])cc2[N+](=O)[O-])C=C(c2ccc3ccccc3c2)CC1c1ccc(OC)cc1 ; strain or isolate: Clinical isolates ; result: 25 µg/mL
O=C1CCC(c2ccc(Oc3ccccc3)cc2)=NN1Cc1n[nH]c(=S)n1-c1ccc(Br)cc1 ; result: 16 µg/mL
COc1ccc(C2CC(Cc3ccc(CC(C)C)cc3)=Cc3[nH][nH]c(=O)c32)cc1 ; method: agar diffusion ; result: 50 µg/mL
Cc1cc(O)cc(O)c1C(=O)O[C@@H]1C[C@]2(C)[C@@H]3[C@H](C=C(C=O)[C@]12O)CC(C)(C)[C@@H]3O ; strain or isolate: Plpa59 ; method: broth dilution ; result: >250 µg/mL
Cc1ccc(C2CC(Cc3ccc(CC(C)C)cc3)=Cc3[nH][nH]c(=O)c32)cc1 ; method: agar diffusion ; result: 50 µg/mL
O=C1CCC(c2ccc(Cl)cc2)=NN1Cc1n[nH]c(=S)n1-c1ccc(Br)cc1 ; result: 4 µg/mL
COc1cccc(CC(=O)Nc2nc(C)cs2)c1 ; strain or isolate: NCIM 524 ; result: 12.5 µg/mL
O=c1[nH][nH]c2c1C(c1ccc(Br)cc1)CC(Cc1ccc3ccccc3c1)=C2 ; method: agar diffusion ; result: 50 µg/mL
CCOC(=O)C1/C(=N/Nc2ccc([N+](=O)[O-])cc2[N+](=O)[O-])C=C(c2ccc3ccccc3c2)CC1c1cccc(Cl)c1 ; strain or isolate: Clinical isolates ; result: 6.25 µg/mL
CS(=O)(=O)N1CCC(n2cc(-c3nc(-c4ccccc4)n[nH]3)nn2)CC1 ; method: agar ; result: 30 µg/mL
CCC(C)n1ncn(-c2ccc(N3CCN(c4ccc(OC[C@H]5CO[C@](Cn6cncn6)(c6ccc(Cl)cc6Cl)O5)cc4)CC3)cc2)c1=O ; strain or isolate: NCIM 524 ; result: <6.25 µg/mL
Cc1cc(=O)oc2cc(OCCCCCCn3cc(CN4CCCCC4)nn3)ccc12 ; strain or isolate: MTCC 277 ; method: agar diffusion ; result: 12.5 µg/mL
CCC(C)n1ncn(-c2ccc(N3CCN(c4ccc(OC[C@H]5CO[C@](Cn6cncn6)(c6ccc(Cl)cc6Cl)O5)cc4)CC3)cc2)c1=O ; strain or isolate: IAM 13835 ; result: 0.1 µg/mL
CCOC(=O)C1/C(=N/Nc2ccc([N+](=O)[O-])cc2[N+](=O)[O-])C=C(c2ccc3ccccc3c2)CC1c1ccc(Cl)cc1 ; strain or isolate: Clinical isolates ; result: 12.5 µg/mL
Cc1ccc(N=Nc2c(-c3c(O)c4ccccc4n(C)c3=O)[nH][nH]c2=O)cc1 ; strain or isolate: ATCC 28542 ; result: >100 µg/mL
CC(=O)N1CCC(n2cc(-c3nc(-c4ccc(C)cc4)n[nH]3)nn2)CC1 ; method: agar ; result: 50 µg/mL
C[C@H]1[C@H](O)[C@@H](C)/C=C/C=C/C=C/C=C/C=C/C=C/C=C/[C@H](O[C@@H]2O[C@H](C)[C@@H](O)[C@H](N)[C@@H]2O)C[C@@H]2O[C@](O)(C[C@@H](O)C[C@@H](O)CC[C@H](O)[C@@H](O)C[C@@H](O)CC(=O)O[C@H]1C)C[C@H](O)[C@H]2C(=O)O ; strain or isolate: 64025 ; method: broth dilution ; result: 0.5 µg/mL

Repeating the first 3 entries:

smiles,strain or isolate,method,result
CC(C)=CCCC(C)CCO,TISTR 3041,broth dilution,3600 µg/mL
Cc1ccc(-c2c(CN)c(N)n(N)c(=O)c2CN)o1,-,-,1.56 µg/mL
Cn1c(=O)c(-c2[nH][nH]c(=O)c2C=Nc2ccc(Cl)cc2)c(O)c2ccccc21,ATCC 28542,-,25 µg/mL